Anti-infective test results gathered from many reports (values: NIAID ChemDB through PubChem).

Common to all: tests in culture; species: HIV-1; method: cytopathic effect; read-out: EC50

Conditions beyond the fields shown may differ between rows.

smiles | strain or isolate | mutations | cells | result
Nc1ccn([C@H]2CC[C@@H](CO)O2)c(=O)n1 | BI-03.97 (HXB2(RT-A62V S68G T69D V75I F77L F116Y Q151M)) | RT-A62V S68G T69D V75I F77L F116Y Q151M | MT-4 | >20 µM
Nc1ncnc2c1ncn2[C@@H]1O[C@H](CO)[C@H]1CO | IIIB | - | MT-4 | 2.78 µM
CC(C)Nc1cccnc1N1CCN(C(=O)c2cc3cc(NS(C)(=O)=O)ccc3[nH]2)CC1 | Y-1 (RT-K103N) | RT-K103N | CEM | 0.6 µg/mL
Cc1cn([C@@H]2O[C@H](CO[Si](C)(C)C(C)(C)C)C3(OS(=O)(=O)C=C3N)[C@H]2O[Si](C)(C)C(C)(C)C)c(=O)n(C)c1=O | IIIB | - | CEM | 0.04 µM
CCCN(C)C(=O)Oc1nsnc1-c1c(Cl)cccc1Cl | IIIB | - | MT-4 | 0.0125 µM
CC[C@H]1C(=O)Nc2ccc(F)cc2N1C(=O)OC(C)C | IIIB WT | - | CEM | 0.0036 µM
CC(C)(C)[Si](C)(C)OCC1OC(n2nncc2C(=O)NC2CCCC2)C(O[Si](C)(C)C(C)(C)C)C12OS(=O)(=O)C=C2N | IIIB | - | MT-4 | 0.86 µM
Nc1ncnc2c1ncn2CCOCP(=O)(O)O | R82150 (RT-L100I) | RT-L100I | MT-2 | 2.25 µM
CC(C)NC(=O)c1cnnn1C1OC(CO[Si](C)(C)C(C)(C)C)C2(OS(=O)(=O)C=C2N)C1O[Si](C)(C)C(C)(C)C | IIIB | - | CEM | 0.18 µM
Cc1ccnc2c1NC(=O)c1cccnc1N2C1CC1 | IIIB | - | MT-2 | 0.03 µM
CC(C)Oc1nc(N)nc2c1ncn2[C@H]1C[C@H](N=[N+]=[N-])[C@@H](CO)O1 | IIIB | - | MT-4 | 22 µM
CSC[C@H](NC(=O)COc1cccc2cnccc12)C(=O)N[C@@H](Cc1ccccc1)[C@H](O)C(=O)N1CSC(C)(C)[C@H]1C(=O)NC(C)(C)C | RF | - | ATH8 | 0.02 µM
CC(C)=CCOc1cc(NC(=S)c2ccoc2C)ccc1Cl | - | - | CEM | 0.003 µg/mL
COc1ccc(OC)c(CCNC(=S)Nc2nccs2)c1 | IIIB | - | MT-4 | 0.28 µM
Fc1cccc(F)c1[C@H]1SCc2nc3ccccc3n21 | IIIB | - | MT-4 | 0.55 µM
O=c1ccn([C@H]2C[C@H](F)[C@@H](CO)O2)c(=O)[nH]1 | IIIB | - | MT-4 | 0.04 µM
Cc1cc(C)nc(N2C(=O)CSC2c2c(Cl)cccc2Cl)n1 | - | RT-K103N | CEM | 16.9 µM
COc1cccc(CCNC(=S)Nc2nccs2)c1 | IIIB | - | MT-4 | 0.68 µM
Cc1cn([C@H]2C[C@H](N=[N+]=[N-])[C@@H](CO)O2)c(=O)[nH]c1=O | IIIB | - | MT-4 | 0.018 µM
[N-]=[N+]=N[C@H]1C[C@H](n2cnc3c(NC4CCC4)nc(N)nc32)O[C@@H]1CO | IIIB | - | MT-4 | 16 µM
Cc1cn([C@H]2C=C[C@@H](COP(=O)(OCc3ccccc3)OCc3ccccc3)O2)c(=O)[nH]c1=O | - | - | CEM + CEM TK- | 5.5 µM
CC1(C)S[C@H]([C@H](NC(=O)Cc2ccccc2)C(=O)NCc2ccccc2)N[C@H]1C(=O)NCCNC(=O)[C@@H]1N[C@@H]([C@H](NC(=O)Cc2ccccc2)C(=O)NCc2ccccc2)SC1(C)C | RF | - | MT-4 | 0.29 µM
Cc1cn([C@H]2C[C@H](N=[N+]=[N-])[C@@H](COP(=O)(O)OCc3ccccc3)O2)c(=O)[nH]c1=O | - | - | CEM + CEM-SS | <0.005 µM
Cc1cn([C@H]2C=C[C@@H](CO)O2)c(=O)[nH]c1=O | IIIB | - | MT-4 | 0.25 µM
CC(C)=CCC[C@]1(C)C=Cc2c(ccc3c2C(=O)C(O)=C(C2=C(C4=C(O)C(=O)c5c(ccc6c5C=C[C@@](C)(CCC=C(C)C)O6)C4=O)C(=O)c4c(ccc5c4C=C[C@@](C)(CCC=C(C)C)O5)C2=O)C3=O)O1 | NL4-3 | - | CEM + CEM-SS | <20 µM
CCc1c([Se]c2ccccc2)n(COCc2ccccc2)c(=O)[nH]c1=O | IIIB | - | MT-2 | 0.02 ± 0.005 µM
CC(C)Nc1cccnc1N1CCN(C(=O)c2cc3cc(NS(C)(=O)=O)ccc3[nH]2)CC1 | IIIB | RT-V179D | CEM | 0.13 µg/mL
CCc1cn([C@H]2C[C@H](F)[C@@H](CO)O2)c(=O)[nH]c1=O | IIIB | - | MT-4 | 300 µM
Nc1ccn([C@H]2CC[C@@H](CO)O2)c(=O)n1 | IIIB | - | MT-2 | 0.14 µM
S=C(NCCc1ccccc1)Nc1ccc(Br)cn1 | IIIB | - | MT-4 | 0.03 µM
O=c1ccn(C[C@H]2C[C@@]2(CO)c2ccccc2)c(=O)[nH]1 | - | - | MT-4 | >100 µg/mL
CCOCn1c(Cc2ccccc2)c(C(C)C)c(=O)[nH]c1=O | Recombinant | RT-V106A P225H | MT-4 | 1.6 µM
S=C(NCCc1ccccn1)Nc1ccc(Cl)cn1 | IIIB | - | MT-4 | 0.017 µM
O=C1CSC(c2c(Cl)cccc2Cl)N1Cc1ccco1 | IIIB | RT | MT-4 | 0.204 µM
Nc1ccn([C@H]2CC[C@@H](CO)O2)c(=O)n1 | IIIB | - | ATH8 | 0.3 µM
CCOCn1c(Cc2ccccc2)c(C(C)C)c(=O)[nH]c1=O | - | - | CEM | 0.003 µg/mL
Fc1cccc(F)c1C1SCc2nc3ccccc3n21 | IIIB | - | MT-4 | 0.352 µM
Cc1cn([C@H]2C=C[C@@H](COP(=O)(O)OCc3ccccc3)O2)c(=O)[nH]c1=O | - | - | CEM + CEM TK- | 0.3 µM
Cc1cn([C@H]2C[C@H](N=[N+]=[N-])[C@@H](CO)O2)c(=O)[nH]c1=O | BI-12.96 (HXB2(RT-A62V S68G T69D V75I F77L F116Y Q151M)) | RT-A62V S68G T69D V75I F77L F116Y Q151M | MT-4 | >5 µM
Fc1cccc(F)c1C1SCc2nc3ccccc3n21 | ADP/141 | - | MT-4 | 0.14 µM
Cc1cn([C@@H]2O[C@H](CO[Si](C)(C)C(C)(C)C)C3(OS(=O)(=O)C=C3N)[C@H]2O[Si](C)(C)C(C)(C)C)c(=O)n(C)c1=O | IIIB | - | C8166 | 0.026 µg/mL
CC(C)Nc1cccnc1N1CCN(C(=O)c2cc3cc(NS(C)(=O)=O)ccc3[nH]2)CC1 | TSAO-m3T-resistant | RT-E138K | CEM | 0.021 µM
Cc1cn([C@H]2C[C@H](N=[N+]=[N-])[C@@H](CO)O2)c(=O)[nH]c1=O | - | - | MT-4 | 0.0007 µg/mL
COc1ccc2c(c1)N(C(=O)OC(C)C)[C@@H](CSC)C(=S)N2 | Recombinant | RT-V106A | MT-4 | 0.013 µM
O=C1CCSC(c2c(F)cccc2F)N1Cc1ccco1 | IIIB | RT | MT-4 | 37.5 µM
O=c1ccn(C[C@@H]2C[C@@]2(CO)c2ccccc2)c(=O)[nH]1 | - | - | MT-4 | >100 µg/mL
O=c1[nH]cnc2c1ncn2[C@H]1CC[C@@H](CO)O1 | IIIB | - | CEM + CEM-SS | 4.3 µM
O=C1CSC(c2c(F)cccc2F)N1c1cccc(C(F)(F)F)c1 | IIIB | - | MT-4 | 35.9 µM
CC(C)(C)[Si](C)(C)OCC1OC(n2nncc2C(=O)NC2CC2)C(O[Si](C)(C)C(C)(C)C)C12OS(=O)(=O)C=C2N | IIIB | - | CEM | 0.08 µM
Cc1cn([C@H]2C[C@H](N=[N+]=[N-])[C@@H](CO)O2)c(=O)[nH]c1=O | - | RT-E138K | CEM | 0.016 µM
Fc1cccc(F)c1[C@@H]1SCc2nc3ccccc3n21 | HE | - | MT-4 | 1.83 µM
CC(C)=CCOc1cc(NC(=S)c2ccoc2C)ccc1Cl | Y-1 (RT-K103N) | RT-K103N | CEM | 0.05 µg/mL
CCc1c(Sc2ccccn2)n(COCc2ccccc2)c(=O)[nH]c1=O | IIIB | - | MT-2 | 0.06 ± 0.02 µM
CC(C)(C)[Si](C)(C)OCC1OC(n2nncc2C(=O)N2CCC2)C(O[Si](C)(C)C(C)(C)C)C12OS(=O)(=O)C=C2N | IIIB | - | MT-4 | 0.14 µM
CCc1c([Se]c2ccccn2)n(COCc2ccccc2)c(=O)[nH]c1=O | Nevirapine-resistant | - | MT-2 | 1 ± 0.01 µM
Cc1csc(NC(=S)NCCc2ccccc2)n1 | IIIB | - | MT-4 | 0.5 µM
CN(C)c1nc(N)nc2c1ncn2[C@H]1C[C@H](N=[N+]=[N-])[C@@H](CO)O1 | IIIB | - | MT-4 | 12 µM
O=CO[C@H]1C[C@H](n2ccc(=O)[nH]c2=O)O[C@@H]1CO | - | - | CEM | >100 µM
Cc1ccnc(N2C(=O)CSC2c2c(Cl)cccc2Cl)n1 | - | RT-E138K | CEM | 0.05 µM
CC1(C)S[C@H]([C@H](NC(=O)Cc2ccccc2)C(=O)NCc2ccccc2)N[C@H]1C(=O)N[C@H](Cc1ccccc1)[C@H](O)CC(=O)NCc1ccccc1 | RF | - | MT-4 | 4.7 µM
Cc1cn([C@H]2CC[C@@H](CO)O2)c(=O)[nH]c1=O | IIIB | - | ATH8 | 160 µM
Cc1cn([C@H]2C[C@H](N=[N+]=[N-])[C@@H](COP(=O)(OCc3ccccc3)OCc3ccccc3)O2)c(=O)[nH]c1=O | - | - | CEM + CEM-SS | 0.01 µM
O=C1CSC(c2c(F)cccc2Cl)N1Cc1ccco1 | IIIB | RT | MT-4 | 0.576 µM
Nc1ccn([C@H]2CC[C@@H](CO)O2)c(=O)n1 | RF | - | CEM + CEM-SS | 0.039 µM
CCCCNC(=O)Oc1nsnc1-c1c(Cl)cccc1Cl | IIIB | - | MT-4 | >129 µM
[N-]=[N+]=N[C@H]1C[C@H](n2cnc3c(NC4CC4)nc(N)nc32)O[C@@H]1CO | IIIB | - | MT-4 | 18 µM
S=C(NCCc1ccccc1)Nc1ccc(Cl)cn1 | IIIB | - | MT-4 | 0.03 µM
CCOCn1c(Cc2ccccc2)c(C(C)C)c(=O)[nH]c1=O | J-2 (RT-Y181C) | RT-Y181C | CEM | 0.081 µg/mL
Cc1cn([C@H]2C[C@H](N=[N+]=[N-])[C@@H](CO)O2)c(=O)[nH]c1=O | - | - | MT-4 | 0.001 µg/mL
O=C1CSC(c2cccnc2)N1Cc1ccco1 | IIIB | - | MT-4 | 271 µM
CC(C)=CCN1Cc2cccc3[nH]c(=S)n(c23)C[C@@H]1C | IIIB | RT-R83K | MT-2 | 0.15 µM
[N-]=[N+]=N[C@H]1C[C@H](n2ccc(N)nc2=O)O[C@@H]1CO | IIIB | - | MT-4 | 7.6 µM
S=C(NCCc1ccccc1)Nc1nccs1 | IIIB | - | MT-4 | 1.33 µM
Cc1cn([C@H]2C[C@H](N=[N+]=[N-])[C@@H](CO)O2)c(=O)[nH]c1=O | IIIB | - | MT-4 | 0.004 µM
C=C(C)OC(=O)N1c2cc(Cl)ccc2NC(=S)C1(C)C | Recombinant | RT-V106A P225H | MT-4 | 0.25 µM
Cc1cn([C@H]2C[C@H](N=[N+]=[N-])[C@@H](CO)O2)c(=O)[nH]c1=O | KK-39-5 | - | MT-4 | >1 µg/mL
Cc1ccnc2c1NC(=O)c1cccnc1N2C1CC1 | A17-(RT-K103N Y181C) NNRTI-resistant | RT-K103N Y181C | MT-2 | 3 µM
Cc1cccc(C)c1OCC(=O)N[C@@H](Cc1ccccc1)[C@H](O)C(=O)N1CSC(C)(C)[C@H]1C(=O)NC(C)(C)C | IIIB | - | CEM + CEM-SS | >0.2 µM
O=C1CSC(c2c(Cl)cccc2Cl)N1c1cccc(C(F)(F)F)c1 | IIIB | - | MT-4 | 6.78 µM

The last 9 rows once more:

smiles | strain or isolate | mutations | cells | result
CC(C)=CCN1Cc2cccc3[nH]c(=S)n(c23)C[C@@H]1C | IIIB | RT-R83K | MT-2 | 0.15 µM
[N-]=[N+]=N[C@H]1C[C@H](n2ccc(N)nc2=O)O[C@@H]1CO | IIIB | - | MT-4 | 7.6 µM
S=C(NCCc1ccccc1)Nc1nccs1 | IIIB | - | MT-4 | 1.33 µM
Cc1cn([C@H]2C[C@H](N=[N+]=[N-])[C@@H](CO)O2)c(=O)[nH]c1=O | IIIB | - | MT-4 | 0.004 µM
C=C(C)OC(=O)N1c2cc(Cl)ccc2NC(=S)C1(C)C | Recombinant | RT-V106A P225H | MT-4 | 0.25 µM
Cc1cn([C@H]2C[C@H](N=[N+]=[N-])[C@@H](CO)O2)c(=O)[nH]c1=O | KK-39-5 | - | MT-4 | >1 µg/mL
Cc1ccnc2c1NC(=O)c1cccnc1N2C1CC1 | A17-(RT-K103N Y181C) NNRTI-resistant | RT-K103N Y181C | MT-2 | 3 µM
Cc1cccc(C)c1OCC(=O)N[C@@H](Cc1ccccc1)[C@H](O)C(=O)N1CSC(C)(C)[C@H]1C(=O)NC(C)(C)C | IIIB | - | CEM + CEM-SS | >0.2 µM
O=C1CSC(c2c(Cl)cccc2Cl)N1c1cccc(C(F)(F)F)c1 | IIIB | - | MT-4 | 6.78 µM

ECn: concentration that inhibits the pathogen or its effect by n%. An empty or dashed field is not shown.